PMC11472052, “Structural basis for difunctional mechanism of m-AMSA against African swine fever virus pP1192R” (2024)

Biological target: African swine fever virus (ASFV) type II topoisomerase pP1192R, full-length (African swine fever virus (ASFV)) (UniProt Q00942)
Assay: SEC + AUC

“African swine fever virus (ASFV) type II topoisomerase pP1192R, full-length (from UniProt Q00942 1-1192) (enzyme)” gave a stoichiometry N of 2.
